A mixed list of measured activities; the numbers were collected in NIAID ChemDB.

Common to all: growth or infection tests; species: Mycobacterium smegmatis

MIC50, MIC90 and the like: level of inhibition, or share of isolates inhibited.

compound	dose	strain	read-out	result
CCCCCCCCCCCCCCCCCC#CC(=O)O		mc2155	MIC99	>200 µM
CCCNCCNC(C)C		ATCC 607	EC50	<125 µg/mL
C#CCCCCCCCCCCCCC#CC(=O)O		mc2651	MIC99	152.6 µM
Cc1c(N2CC[C@@H](CN)C2)c(F)cc2c(=O)n(N)c(=O)n(C3CC3)c12		WT	MIC99	0.625 µg/mL
CCCCCCCCCCCCNCCNCCCCCCCCCCCC	250 µg/mL	ATCC 607	inhibition	0%
CCCCCCCCCCCCCCCCC#CC(=O)O		mc2155	MIC99	34 µM
CCC1CN(c2cc3c(cc2F)c(=O)c(C(=O)O)cn3C2CC2)CCN1		A91V mutant	MIC99	0.5 µg/mL
CC(C)NCC(C)NC(C)C	250 µg/mL	ATCC 607	inhibition	100%
COc1c(N2CC[C@@H](CN)C2)c(F)cn2c(=O)n(N)c(=O)c(C3CC3)c12		D95Y mutant	MIC99	40 µg/mL
CCCCCCCCCCCCN(C)CCN(C)C		ATCC 607	EC50	<4 µg/mL
COc1c(N2CC[C@@H](CN)C2)c(F)cc2c(=O)c(C(=O)O)cn(C3CC3)c12		G89C mutant	MIC99	1 µg/mL
CCCCCCCCCCCCCC#CC(=O)OCC(O)CO		mc22389	MIC99	19.1 µM
CCCCNCCNCCCC		ATCC 607	EC50	>250 µg/mL
CCCCCCCCCCCCCC#CC(=O)OCCO		mc2155	MIC99	6.8 µM
NNC(=O)c1ccncc1		MC^2 802	MIC	15 µg/mL

2 of the rows above, restated:

| compound | dose | strain | read-out | result |
|---|---|---|---|---|
| C#CCCCCCCCCCCCCC#CC(=O)O |  | mc2651 | MIC99 | 152.6 µM |
| COc1c(N2CC[C@@H](CN)C2)c(F)cn2c(=O)n(N)c(=O)c(C3CC3)c12 |  | D95Y mutant | MIC99 | 40 µg/mL |

An empty or dashed field is not shown. Percent inhibition refers to the dose given; in toxicity tests it is the harm to the cells. Rows are shuffled and stem from different studies. ECn: concentration that inhibits the pathogen or its effect by n%.